Assays:
Assay in all cases: cell-based or functional assay
[1] = biological target: HIV-1 envelope glycoprotein (Env, gp120) of virus CHO77 (HIV-1)
[2] = biological target: HIV-1 envelope glycoprotein (Env, gp120) of virus THRO (HIV-1)
[3] = biological target: HIV-1 envelope glycoprotein (Env, gp120) of virus 8117 (HIV-1)
[4] = biological target: HIV-1 envelope glycoprotein (Env, gp120) of virus 8110 (HIV-1)
[5] = biological target: HIV-1 envelope glycoprotein (Env, gp120) of virus 7467 (HIV-1)
[6] = biological target: HIV-1 envelope glycoprotein (Env, gp120) of virus 8106 (HIV-1)
[7] = biological target: HIV-1 envelope glycoprotein (Env, gp120) of virus VS017 (HIV-1)
[8] = biological target: HIV-1 envelope glycoprotein (Env, gp120) of virus VS044 (HIV-1)
[9] = biological target: HIV-1 envelope glycoprotein (Env, gp120) of virus 92US727 (HIV-1)
[10] = biological target: HIV-1 envelope glycoprotein (Env, gp120) of virus 302076 (HIV-1)
[11] = biological target: HIV-1 envelope glycoprotein (Env, gp120) of virus 7015 (HIV-1)
[12] = biological target: HIV-1 envelope glycoprotein (Env, gp120) of virus 8176 (HIV-1)
[13] = biological target: HIV-1 envelope glycoprotein (Env, gp120) of virus 92US712 (HIV-1)
[14] = biological target: HIV-1 envelope glycoprotein (Env, gp120) of virus 8318 (HIV-1)
[15] = biological target: HIV-1 envelope glycoprotein (Env, gp120) of virus 7051 (HIV-1)
[16] = biological target: HIV-1 envelope glycoprotein (Env, gp120) of virus 1413 (HIV-1)
[17] = biological target: HIV-1 envelope glycoprotein (Env, gp120) of virus VS026 (HIV-1)
[18] = biological target: HIV-1 envelope glycoprotein (Env, gp120) of virus 1012 (HIV-1)
[19] = biological target: HIV-1 envelope glycoprotein (Env, gp120) of virus 7141 (HIV-1)
[20] = biological target: HIV-1 envelope glycoprotein (Env, gp120) of virus REJO (HIV-1)
[21] = biological target: HIV-1 envelope glycoprotein (Env, gp120) of virus 8134 (HIV-1)
[22] = biological target: HIV-1 envelope glycoprotein (Env, gp120) of virus 7595 (HIV-1)
[23] = biological target: HIV-1 envelope glycoprotein (Env, gp120) of virus 7552 (HIV-1)
[24] = biological target: HIV-1 envelope glycoprotein (Env, gp120) of virus 92US657 (HIV-1)
[25] = biological target: HIV-1 envelope glycoprotein (Env, gp120) of virus VS043 (HIV-1)
[26] = biological target: HIV-1 envelope glycoprotein (Env, gp120) of virus 7714 (HIV-1)
[27] = biological target: HIV-1 envelope glycoprotein (Env, gp120) of virus VS004 (HIV-1)
[28] = biological target: HIV-1 envelope glycoprotein (Env, gp120) of virus 8320 (HIV-1)
[29] = biological target: HIV-1 envelope glycoprotein (Env, gp120) of virus 7576 (HIV-1)
[30] = biological target: HIV-1 envelope glycoprotein (Env, gp120) of virus 1489 (HIV-1)
[31] = biological target: HIV-1 envelope glycoprotein (Env, gp120) of virus VS042 (HIV-1)
[32] = biological target: HIV-1 envelope glycoprotein (Env, gp120) of virus VS030 (HIV-1)
[33] = biological target: HIV-1 envelope glycoprotein (Env, gp120) of virus 7103 (HIV-1)
[34] = biological target: HIV-1 envelope glycoprotein (Env, gp120) of virus VS049 (HIV-1)
[35] = biological target: HIV-1 envelope glycoprotein (Env, gp120) of virus 92HT593 (HIV-1)
[36] = biological target: HIV-1 envelope glycoprotein (Env, gp120) of virus VS001 (HIV-1)
[37] = biological target: HIV-1 envelope glycoprotein (Env, gp120) of virus VS046 (HIV-1)
[38] = biological target: HIV-1 envelope glycoprotein (Env, gp120) of virus VS039 (HIV-1)

B1: Antibody A-1 (antibody, human IgG1, kappa)
heavy: QVQLLQSGAAVTKPGASVRVSCEASGYNIRDYFIHWWRQAPGQGLQWVGWINPKTGQPNNPRQFQGRVSLTRHASWDFDTFSFYMDLKALRSDDTAVYFCARQRSDYWDFDVWGSGTQVTVSSASTKGPSVFPLAPSSKSTSGGTAALGCLVKDYFPEPVTVSWNSGALTSGVHTFPAVLQSSGLYSLSSVVTVPSSSLGTQTYICNVNHKPSNTKVDKKVEPKSCDKTHTCPPCPAPELLAGPDVFLFPPKPKDTLMISRTPEVTCVVVDVSHEDPEVKFNWYVDGVEVHNAKTKPREEQYNSTYRVVSVLTVLHQDWLNGKEYKCKVSNKALPLPEEKTISKAKGQPREPQVYTLPPSREEMTKNQVSLTCLVKGFYPSDIAVEWESNGQPENNYKTTPPVLDSDGSFFLYSKLTVDKSRWQQGNVFSCSVLHEALHSHYTQKSLSLSPGK
light: not shown
[1]
  Virus Neutralization Potency: 0.04 µg/mL
[2]
  Virus Neutralization Potency: 2.8 µg/mL
[3]
  Virus Neutralization Potency: 0.86 µg/mL
[4]
  Virus Neutralization Potency: 3.64 µg/mL
[5]
  Virus Neutralization Potency: 0.04 µg/mL
[6]
  Virus Neutralization Potency: 2.72 µg/mL
[7]
  Virus Neutralization Potency: 0.7 µg/mL
[8]
  Virus Neutralization Potency: 0.18 µg/mL
[9]
  Virus Neutralization Potency: 2.43 µg/mL
[10]
  Virus Neutralization Potency: 0.08 µg/mL
[11]
  Virus Neutralization Potency: 0.53 µg/mL
[12]
  Virus Neutralization Potency: 0.26 µg/mL
[13]
  Virus Neutralization Potency: 0.06 µg/mL
[14]
  Virus Neutralization Potency: 0.27 µg/mL
[15]
  Virus Neutralization Potency: 0.79 µg/mL
[16]
  Virus Neutralization Potency: 5.31 µg/mL
[17]
  Virus Neutralization Potency: 0.11 µg/mL
[18]
  Virus Neutralization Potency: 1.41 µg/mL
[19]
  Virus Neutralization Potency: 2.32 µg/mL
[20]
  Virus Neutralization Potency: 0.01 µg/mL
[21]
  Virus Neutralization Potency: 1.57 µg/mL
[22]
  Virus Neutralization Potency: 4.88 µg/mL
[23]
  Virus Neutralization Potency: 12 µg/mL
[24]
  Virus Neutralization Potency: 0.38 µg/mL
[25]
  Virus Neutralization Potency: 0.79 µg/mL
[26]
  Virus Neutralization Potency: 4.2 µg/mL
[27]
  Virus Neutralization Potency: 2.66 µg/mL
[28]
  Virus Neutralization Potency: 2.2 µg/mL
[29]
  Virus Neutralization Potency: 0.69 µg/mL
[30]
  Virus Neutralization Potency: 0.12 µg/mL
[31]
  Virus Neutralization Potency: 2.53 µg/mL
[32]
  Virus Neutralization Potency: 2.04 µg/mL
[33]
  Virus Neutralization Potency: 0.76 µg/mL
[34]
  Virus Neutralization Potency: 39.5 µg/mL
[35]
  Virus Neutralization Potency: 0.27 µg/mL
[36]
  Virus Neutralization Potency: 0.06 µg/mL
[37]
  Virus Neutralization Potency: 0.04 µg/mL
[38]
  Virus Neutralization Potency: 0.12 µg/mL

Reference: US20220089698A1, “ANTIBODIES THAT TARGET HIV GP120 AND METHODS OF USE” (published 2022)
